Compound potency records, mixed from different reports. Data source: NIAID ChemDB in PubChem.

Shared fields: tests in culture; species: HIV-1; cell line: C8166; endpoint: EC50

An empty or dashed field is not shown. ECn: concentration that inhibits the pathogen or its effect by n%. Conditions beyond the fields shown may differ between rows.

SMILES,strain,changes,method,value
O=c1c2cccn2ccn1CCNC(=S)Nc1ccc(Br)cn1,IIIB,,cytopathic effect / MTT,0.041 µM
O=C(CC1(O)C(=O)Nc2ccc(Cl)cc21)c1ccc(F)cc1,IIIB,,cytopathic effect / syncytia,59.58 µM
Cc1ccnc2c1NC(=O)c1cccnc1N2C1CC1,UMGL CLIN ISOL,,cytopathic effect / MTT,0.04 µM
COC(=O)c1cc2c(c(OC)c1-c1ccc(N(C)C)cc1)OCO2,NL4-3,E138K,antigen,17.84 µM
Nc1ncnc2c1ncn2[C@H]1CC[C@@H](CO)O1,IIIB,,syncytia,4 µM
CC(C)[C@H](NC(=O)c1ccc2ccccc2n1)C(=O)N[C@@H](Cc1ccccc1)[C@H](O)CN1CC[C@@H](OCc2ccncc2)C[C@H]1C(=O)NC(C)(C)C,HXB2,,p24 / ELISA / antigen,0.0005 µM
Cc1ccnc2c1NC(=O)c1cccnc1N2C1CC1,HXB2,,p24,0.007 µM
C=CCN(/C=C/c1ccccc1Br)C(C)=O,IIIB,,syncytia,75 µM
Cc1cn([C@@H]2C[C@@H](N=[N+]=[N-])[C@H](COP(=O)(OCc3ccc(OC(=O)C(C)(C)C)cc3)OC[C@H]3O[C@@H](n4cc(C)c(=O)[nH]c4=O)C[C@@H]3N=[N+]=[N-])O2)c(=O)[nH]c1=O,111B,,cytopathic effect / MTT,0.003 µM
CC(C)[C@H](NC(=O)c1ccc2ccccc2n1)C(=O)N[C@@H](Cc1ccccc1)[C@H](O)CN1CC[C@@H](SCc2cccnc2)C[C@H]1C(=O)NC(C)(C)C,BILA2185-resistant (PR I84V),PR-I84V,p24,0.002 µM
CCN(/C=C/c1ccccc1Br)C(C)=O,IIIB,,syncytia,48 µM
CCCC(=O)Oc1ccc(COP(=O)(OC[C@@H]2O[C@H](n3cc(C)c(=O)[nH]c3=O)C[C@H]2N=[N+]=[N-])OC[C@H]2O[C@@H](n3cc(C)c(=O)[nH]c3=O)C[C@@H]2N=[N+]=[N-])cc1,IIIB,,cytopathic effect / MTT,0.003 µM
CC(C)[C@H](NC(=O)c1ccc2ccccc2n1)C(=O)N[C@@H](Cc1ccccc1)[C@H](O)CN1CC[C@@H](OCc2ccncc2)C[C@H]1C(=O)NC(C)(C)C,ddI-resistant,,p24,0.0062 µM
CCCCCCNC(=O)OCCCCCCNC(=O)OC1CCN(C(=O)Oc2ccc(Oc3ccccc3)cc2)CC1,IIIB,,cytopathic effect / syncytia / microscopy,1.51 µM
COc1ccccc1C(=O)CC1(O)C(=O)Nc2ccccc21,IIIB,,cytopathic effect / syncytia,41.29 µM
Cc1cn([C@H]2C[C@H](N=[N+]=[N-])[C@@H](CO)O2)c(=O)[nH]c1=O,IIIB,,cytopathic effect / MTT,0.4 µM
CC(=O)N(/C=C/c1ccccc1Br)Cc1c(F)cccc1F,IIIB,,syncytia,29 µM
[NH4+],IIIB,,antigen,>100 µg/mL
Cc1ccnc2c1NC(=O)c1cccnc1N2C1CC1,IIIB,,p24,0.012 µM
COc1ccc(/C=C/N(C)C(C)=O)c(OC)c1,IIIB,,syncytia,32 µM
O=c1cnc2ccccc2n1CCNC(=S)Nc1ccc(Br)cn1,IIIB,,cytopathic effect / MTT,>2 µM
COc1ccccc1C(=O)CC1(O)C(=O)Nc2ccc(Br)cc21,IIIB,,cytopathic effect / syncytia,0.19 µM
Cc1cn([C@H]2C[C@H](N=[N+]=[N-])[C@@H](CO)O2)c(=O)[nH]c1=O,IIIB,,cytopathic effect / syncytia / microscopy,0.01 µM
O=c1[nH]cnc2c1ncn2[C@H]1CC[C@@H](CO)O1,IIIB,,cytopathic effect / MTT,0.8 µM
Cc1ccnc2c1NC(=O)c1cccnc1N2C1CC1,NL4-3,Y181C,p24 / ELISA,3.32 µM
CC(=O)O[C@@]12C[C@@H](C)[C@@]3(O)[C@@H](C=C(CO)C[C@]4(O)C(=O)C(C)=C[C@@H]34)[C@@H]1C2(C)C,A17,,p24 / ELISA,3.34 µM
O=C(CC1(O)C(=O)Nc2ccc(Cl)cc21)c1cccc([N+](=O)[O-])c1,IIIB,,cytopathic effect / syncytia,37.84 µM
CC(=O)N(/C=C/c1ccccc1Br)Cc1cc(F)cc(F)c1,IIIB,,syncytia,4 µM
Cc1cn([C@H]2C[C@H](N=[N+]=[N-])[C@@H](COP(=O)(OCc3ccc(OC(=O)C(C)(C)C)cc3)OC[C@H]3CC[C@@H](n4cnc5c(=O)[nH]cnc54)O3)O2)c(=O)[nH]c1=O,IIIB,,cytopathic effect / MTT,0.02 µM
Nc1ccn([C@@H]2CO[C@H](CO)S2)c(=O)n1,RF,RT-V106I Y188C,p24,2.2 µM
CC(=O)N(/C=C/c1ccccc1Br)Cc1ccccc1,IIIB,,syncytia,9 µM

Again, the opening 5 rows:

SMILES	strain	changes	method	value
O=c1c2cccn2ccn1CCNC(=S)Nc1ccc(Br)cn1	IIIB		cytopathic effect / MTT	0.041 µM
O=C(CC1(O)C(=O)Nc2ccc(Cl)cc21)c1ccc(F)cc1	IIIB		cytopathic effect / syncytia	59.58 µM
Cc1ccnc2c1NC(=O)c1cccnc1N2C1CC1	UMGL CLIN ISOL		cytopathic effect / MTT	0.04 µM
COC(=O)c1cc2c(c(OC)c1-c1ccc(N(C)C)cc1)OCO2	NL4-3	E138K	antigen	17.84 µM
Nc1ncnc2c1ncn2[C@H]1CC[C@@H](CO)O1	IIIB		syncytia	4 µM